Assay results: patent US8748373B2, “Hepatitis B virus compositions and methods of use” (priority 2007, dated 2014)
“And” between values parts separate entries of the source, which are not always exact repeats. Identical values can stand only once.

Tests used:
293T cells = test: Transient expression and secretion of IA and preS proteins, immunoblot quantitation of media and cells; assay type: cell-based, human; conditions: for Secretion (%): protein detected in medium relative to total in medium and cells: 293T cells, 2 days after transient transfection, immunoblot; for Secretion (%) / Concentration in media: 2 days
T-REx 293 cell line = test: Induced expression and secretion of IA from stable T-REx 293 cell line; assay type: cell-based, human; conditions: 2 days after tetracycline induction
[1] = Dimer formation of secreted IA, electrophoresis under non-reducing conditions; conditions: secreted protein
[2] = Transient transfection of 293T cells with 10 μg plasmid

**Q.** For “MAGWSSKPRKGMATNLSVPNPLGFFPDHQLD . . . HPQA [G2A, G13A]”, which “Secretion (%): protein detected in medium relative to total in medium and cells” value (293T cells) is on record?
**A.** The value was 71%.

**Q.** With “S1S2-IA: immunoadhesin: HBV preS1 plus preS2 domains fused to Fc region of a rabbit IgG heavy chain” as the molecule, how does the Concentration in media (T-REx 293 cell line) read?
**A.** Its Concentration in media is 320 nM.

**Q.** And the “Secretion (%)” value (T-REx 293 cell line)?
**A.** The value was > 80% and 82%.

**Q.** And the “Secretion (%)” value (T-REx 293 cell line; listed as S1S1-IA)?
**A.** Its value is greater than 80%.

**Q.** And the Occurrence as dimers [1]?
**A.** The Occurrence as dimers was 14%.

**Q.** And the “Secretion (%)” value (293T cells; Transient transfection of 293T cells with 0.16 μg plasmid (64-fold less))?
**A.** The value was > 80% and 83%.

**Q.** What about the “Secretion (%)” value (293T cells; Transient transfection of 293T cells with 0.16 μg plasmid (64-fold less), listed as S1S1-IA) of the same molecule?
**A.** The value was greater than 80%.

**Q.** What about the Concentration in media (293T cells; Transient transfection of 293T cells with 0.16 μg plasmid) of the same molecule?
**A.** Its Concentration in media is 26 nM.

**Q.** And the Concentration in media (293T cells; [2])?
**A.** Its Concentration in media is 540 nM.

**Q.** What about the “Secretion (%)” value (293T cells; [2]) of the same molecule?
**A.** The value was 95%.

**Q.** For “MGGWSSKPRK (expressed as IA; 1-10 of HBV) [preS1 amino acids 1-10 expressed as IA]”, which “Secretion (%): protein detected in medium relative to total in medium and cells” value (293T cells) is on record?
**A.** Its value is 4%.

**Q.** Which Occurrence as dimers [1] does the source give for “S1-IA: immunoadhesin: HBV preS1 domain (1-119, adw2) fused N terminally to Fc region of a rabbit IgG heavy chain” here?
**A.** Its Occurrence as dimers is 14%.

**Q.** Which “Secretion (%): protein detected in medium relative to total in medium and cells” value (293T cells) does the source give for “MGGWSSKPRKGMGTQLSVPNPLGFFPDHQLD . . . HPQA [N15Q]” here?
**A.** The value was 64%.

**Q.** For MGGWSSKPRKGMGTNLSVPNPLGFFPDHQL [1-30], which “Secretion (%): protein detected in medium relative to total in medium and cells” value (293T cells) is on record?
**A.** The value was 75%.

B1: IA without HBV sequences: Fc region of a rabbit IgG heavy chain without HBV preS sequences (protein)
chain: APSTCSKPTCPPPELLGGPSVFIFPPKPKDTLMISRTPEVTCVVVDVSQDDPEVQFTWYINNEQVRTARPPLREQQFNSTIRVVSTLPITHQDWLRGKEFKCKVHNKALPAPIEKTISKARGQPLEPKVYTMGPPREELSSRSVSLTCMINGFYPSDISVEWEKNGKAEDNYKTTPAVLDSDGSYFLYNKLSVPTSEWQRGDVFTCSVMHEALHNHYTQKSISRSPGK
**Q.** For B1, which “Secretion (%): protein detected in medium relative to total in medium and cells” value (293T cells) is on record?
**A.** Its value is “not secreted”.
